Laboratory results from PubChem BioAssay AID1117359 (Southern Research Institute, 2015).
This is a selection; strong and weak results do not stand in their true shares. Measured potencies and affinities stand elsewhere. The source made the active and inactive calls.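 How the source made its calls: active means viability at or below 80% at any tested concentration, marking the compound as toxic; inactive means the rest.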

Experiment: viability loss in THP-1 monocytes – THP-1 cells, cytotoxicity control for Vif-APOBEC3G degradation inhibitor project, dose response (AID 1117359)
Conditions: THP-1 viability, CellTiter-Glo luminescence, 72 h; at 40 µM (top of the series)

SMILES | viability
Oc1ccc(/C=N/NC(=S)Nc2cccnc2)c(O)c1O | inactive: 104%
